Fitness of HIV-1 1203 Vif variants in SupT1-APOBEC3G cells

Reference: Langley et al. 2025, preprint, doi:10.1101/2025.10.20.683452.

Protein: Vif of HIV-1 1203 (a subtype B primary isolate). Residues 12-115 were scanned and are shown below; the first letter is residue 12.
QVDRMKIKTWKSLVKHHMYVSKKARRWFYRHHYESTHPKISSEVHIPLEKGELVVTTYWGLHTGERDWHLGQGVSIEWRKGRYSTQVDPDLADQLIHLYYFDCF

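A pool of vif mutants was passaged twice, 72 h each, on SupT1 cells that express APOBEC3G. Each of three replicates was sequenced after round two and set against the merged round-one pool.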

Scale: log2 enrichment, wild type = 0; negative values mean that the variant was depleted. Each entry names the wild-type residue, its position and the residue put in its place. The median of three replicates is given, with the replicates in brackets. Input reads are the counts in the merged round-one pool, before selection. Replicates agree only moderately (rank correlation about 0.4-0.65); scores from under about 50 input reads tend to be too high.

mutation	input reads	median score
Y40A	220	-2.77 (-4.06 -2.77 -1.43)
Y40I	332	-1.90 (-2.45 -1.69 -1.90)
Y40N	700	-2.14 (-1.86 -3.14 -2.14)
Y40P	348	-2.00 (-2.00 -2.36 0.05)
Y40Q	1568	-1.71 (-1.71 -2.09 -0.26)
Y40S	21	-0.22 (-0.22 5.27 -2.47)
Y40T	282	-1.66 (1.93 -2.68 -1.66)
R41C	184	1.37 (1.58 1.00 1.37)
R41D	446	-2.15 (-2.62 -2.15 -1.78)
R41G	52	3.62 (4.19 3.62 0.66)
R41L	131	1.72 (1.72 2.81 -1.15)
R41Y	17	0.17 (-2.70 5.18 0.17)
H42C	171	1.90 (-0.43 3.89 1.90)
H42E	157	-1.87 (-3.11 -1.30 -1.87)
H42F	282	-1.21 (-1.21 2.30 -1.41)
H42G	1025	-2.14 (-2.28 -0.39 -2.14)
H42I	273	-1.85 (-1.96 -1.85 -1.48)
H42N	442	1.41 (-2.20 1.41 1.98)
H42R	30	-1.74 (-3.55 -1.74 -0.63)
H42S	477	-0.24 (-0.24 -2.44 1.45)
H42T	2332	-1.49 (-2.03 -0.70 -1.49)
H42W	425	-1.20 (1.04 -2.08 -1.20)
H42Y	239	-1.48 (-1.48 -3.13 0.05)
H43C	17	-1.07 (-1.07 0.61 -2.02)
H43D	58	3.74 (0.24 4.29 3.74)
H43E	410	-0.22 (-0.22 -0.37 4.95)
H43F	39	1.05 (5.29 -0.28 1.05)
H43G	230	-2.03 (0.59 -2.03 -2.93)
H43N	113	-0.71 (-0.71 -2.94 -0.20)
H43P	590	-2.68 (-0.62 -2.68 -2.71)
H43Q	371	-1.07 (-0.88 -1.92 -1.07)
H43S	1149	-2.51 (0.88 -2.82 -2.51)
H43T	78	3.16 (4.25 -0.20 3.16)
H43W	195	-2.33 (1.00 -2.87 -2.33)
H43Y	20	-0.47 (-1.30 -0.47 0.92)
Y44C	34	-0.59 (-0.59 5.04 -1.60)
Y44D	22	-1.56 (-1.56 -2.97 0.24)
Y44F	23	-0.31 (-0.40 5.31 -0.31)
Y44I	178	-2.50 (-3.81 -2.50 -2.10)
Y44K	219	-2.35 (-2.73 -2.35 -1.95)
Y44L	278	-2.02 (-2.02 -1.96 -2.74)
Y44N	776	0.56 (0.56 0.13 0.96)
Y44P	42	3.90 (0.58 4.06 3.90)
Y44Q	23	2.01 (5.82 0.14 2.01)
Y44R	240	-2.53 (-2.47 -2.69 -2.53)
S46A	305	-1.74 (2.47 -2.13 -1.74)
S46F	32	-0.14 (-0.14 -0.62 4.51)
S46G	1188	-1.83 (-1.83 0.21 -1.88)
S46H	81	-0.89 (0.43 -3.16 -0.89)
S46I	19	0.52 (2.75 -0.36 0.52)
S46K	364	-2.12 (-3.00 -1.87 -2.12)
S46N	29	-0.96 (-1.88 -0.96 -0.08)
S46Q	20	2.28 (1.15 4.91 2.28)
S46R	573	0.15 (-1.06 0.72 0.15)
S46T	77	1.12 (1.12 -0.77 3.07)
S46V	98	3.10 (-0.34 3.10 3.79)
T47P	65	-4.06 (-1.16 -4.45 -4.06)
H48A	26	-0.42 (-0.51 5.26 -0.42)
H48D	317	-2.47 (-3.00 -2.47 -1.20)
H48F	102	-2.76 (-2.95 -2.76 0.35)
H48I	473	-2.27 (-2.27 -2.43 -1.48)
H48Y	314	1.17 (-1.84 1.75 1.17)
P49C	41	0.50 (2.55 -2.23 0.50)
P49D	328	-3.10 (-4.62 -3.10 -2.15)
P49H	348	-1.68 (-2.39 -1.68 -1.27)
P49I	123	-4.98 (-2.73 -5.39 -4.98)
P49K	443	-1.78 (-1.71 -2.71 -1.78)
P49V	821	-1.74 (-0.97 -2.02 -1.74)
K50D	375	-2.39 (-2.39 -3.81 -1.84)
K50F	19	-0.01 (-0.56 4.97 -0.01)
K50H	21	-0.88 (0.68 -2.85 -0.88)
K50I	16	-0.50 (5.38 -2.47 -0.50)
K50P	1270	-2.24 (-1.03 -3.53 -2.24)
K50R	32	-0.74 (0.90 -3.45 -0.74)
K50T	307	-1.94 (-2.34 -1.94 -0.20)
K50V	907	-1.89 (-2.12 0.42 -1.89)
K50W	22	-2.53 (-1.50 -2.92 -2.53)
I51N	111	-2.89 (-3.05 -2.89 -2.02)
I51Q	272	-2.25 (-3.50 -2.25 -1.47)
I51R	171	-2.37 (-2.54 -2.37 -2.28)
I51T	29	2.85 (2.85 4.72 0.55)
S52C	350	-2.22 (-2.29 -2.22 -1.73)
S52G	17	-0.22 (1.37 -0.22 -0.58)
S52N	567	-1.67 (-1.67 0.89 -2.43)
S52V	357	-1.94 (-2.82 -1.94 -1.76)
S52Y	108	-1.62 (-1.89 1.81 -1.62)
E54C	21	1.09 (1.09 0.86 4.91)
E54L	18	0.03 (0.03 5.56 -2.24)
E54N	356	-1.07 (-1.07 1.52 -1.47)
E54Q	414	-2.47 (0.97 -2.47 -2.82)
E54S	1934	-2.01 (-1.14 -2.24 -2.01)
E54T	192	-2.07 (-2.07 -3.20 -1.92)
E54V	24	0.16 (5.39 -1.45 0.16)
E54W	31	-3.01 (-3.55 -1.07 -3.01)
V55F	317	-2.35 (-2.62 -2.35 -1.95)
V55G	31	1.24 (5.54 -0.60 1.24)
V55H	396	-1.38 (0.77 -2.30 -1.38)
V55I	114	-0.48 (3.12 -1.81 -0.48)
V55S	209	-1.89 (-2.81 -1.89 -1.10)
V55W	170	-1.72 (-1.72 -0.71 -2.28)
V55Y	173	-2.66 (-2.09 -3.06 -2.66)
H56G	219	-1.81 (-0.58 -1.81 -2.10)
H56K	116	-1.72 (-2.64 -1.38 -1.72)
H56N	22	1.32 (1.32 2.76 0.65)
H56T	88	-1.43 (-2.24 -1.43 -1.03)
H56W	256	-2.12 (-2.34 -1.90 -2.12)
H56Y	22	0.94 (1.45 0.55 0.94)
I57C	232	-2.36 (-2.36 0.79 -2.72)
I57E	189	-2.42 (-1.90 -2.52 -2.42)
I57L	152	-1.82 (-1.75 -3.34 -1.82)
I57P	135	-2.30 (-1.76 -2.68 -2.30)
I57Q	125	-1.47 (-1.47 -1.47 1.92)
I57T	201	-2.87 (-2.15 -6.06 -2.87)
I57Y	28	-0.05 (-1.09 5.28 -0.05)

A selection of 12 entries from above:

| mutation | input reads | median score |
|---|---|---|
| I57Q | 125 | -1.47 (-1.47 -1.47 1.92) |
| P49I | 123 | -4.98 (-2.73 -5.39 -4.98) |
| V55F | 317 | -2.35 (-2.62 -2.35 -1.95) |
| K50I | 16 | -0.50 (5.38 -2.47 -0.50) |
| P49H | 348 | -1.68 (-2.39 -1.68 -1.27) |
| E54N | 356 | -1.07 (-1.07 1.52 -1.47) |
| Y40P | 348 | -2.00 (-2.00 -2.36 0.05) |
| Y44L | 278 | -2.02 (-2.02 -1.96 -2.74) |
| I51T | 29 | 2.85 (2.85 4.72 0.55) |
| S46T | 77 | 1.12 (1.12 -0.77 3.07) |
| S52V | 357 | -1.94 (-2.82 -1.94 -1.76) |
| S52C | 350 | -2.22 (-2.29 -2.22 -1.73) |

The authors note that some positive scores may be noise, and some enriched variants failed when tested singly. Not every substitution is listed.